Results of unrelated studies side by side (data: NIAID ChemDB).

Common to all: whole-cell or culture tests; organism: Mycobacterium tuberculosis

Percent inhibition refers to the dose given; in toxicity tests it is the harm to the cells.

compound,strain or isolate,setting,read by,measure,tested at,value
CC(C)=CCC(OC(=O)CC(C)C)C1=CC(=O)c2c(O)ccc(O)c2C1=O,ETA-R,-,-,MIC,-,>12.5 µg/mL
COc1ccc(/C=C(\C#N)n2nnc3ccccc32)cc1OC,H37Rv,-,-,EC50,-,>12.5 µg/mL
Cc1ccc(NCCNCC(O)CO)c2c(=O)c3ccccc3sc12,H37Rv,-,BACTEC,inhibition,12.5 µg/mL,100%
COc1ccc(N2COc3ccccc3C2)cc1,-,-,absorbance,MIC,-,1.65 µg/mL
CC(C)=O.CC(C)C1(NC(=O)C2C=C3c4cccc5[nH]cc(c45)CC3N(C)C2)OC2(O)C3CCCN3C(=O)C(Cc3ccccc3)N2C1=O,H37Rv,-,BACTEC,inhibition,12.8 µg/mL,41%
CCn1cc(C(=O)N/N=C/c2ccc([N+](=O)[O-])o2)c(=O)c2cc(Cl)ccc21,H37Rv (ATCC 27294),-,resazurin,MIC,-,>100 µg/mL
O=[N+]([O-])c1cccc2c(C3CCCC3)cc(C3CCCC3)nc12,Isoniazid-resistant,-,-,MIC,-,12.5 µg/mL
O=C(Nc1ccc(C(F)(F)F)cc1)c1cccc2nc3ccccc3nc12,H37Rv 27294,-,-,MIC,-,0.39 µg/mL
c1ccc(-c2nc(NCCc3cnc[nH]3)cc(Nc3cc(C4CC4)[nH]n3)n2)cc1,H37Rv,-,-,MIC99,-,>20 µM
O=C(O)c1c(Cl)c(Cl)c(Cl)c(Cl)c1-c1c2ccc(=O)cc-2oc2cc(O)ccc12,H37Rv,-,BACTEC,MIC bound,-,>12.5 µg/mL
O=C(NN=C1CCCCC1)c1ccncc1,Isoniazid-resistant,-,-,MIC,-,>0.75 µg/mL
CCC1Cn2cc([N+](=O)[O-])nc2O1,2 isolates (isoniazid-resistant),-,-,MIC,-,0.16 µg/mL
Cc1cc(-c2cc3c(cc2F)c(=O)c(C(=O)O)cn3C2CC2)cc(C)n1,483-8,-,-,MIC,-,0.5 µg/mL
C/C(=N\NC(=O)c1cccnc1)c1cccc(/C(C)=N/NC(=O)c2cccnc2)n1,H37Rv,-,BACTEC,MIC,-,≥12.5 µg/mL
Cc1cccc(N=Nc2c(O)c3ccc(Cl)c(Cl)c3[nH]c2=O)c1,H37Rv,-,resazurin,MIC,-,<6.25 µg/mL
CCCCOc1ccc(/C=N/NC(=O)CNC(=O)Nc2cccc([N+](=O)[O-])c2)cc1,H37Rv,-,BACTEC,MIC,-,12.5 µg/mL
CO[C@H]1/C=C/O[C@@]2(C)Oc3c(C)c(O)c4c(O)c(c(N5CCN(Cc6c(C)cc(C)cc6C)CC5)c(O)c4c3C2=O)NC(=O)/C(C)=C\C=C\[C@H](C)[C@H](O)[C@@H](C)[C@@H](O)[C@@H](C)[C@H](OC(C)=O)[C@@H]1C,Rifampicin-resistant,-,-,MIC,-,>3 µg/mL
CC(C)OC(=O)Nc1c(C#N)[n+]([O-])c2cc(Cl)c(Cl)cc2[n+]1[O-],H37Rv,-,-,MIC,-,<12.5 µg/mL
CO[C@H]1/C=C/O[C@@]2(C)Oc3c(C)c(O)c4c(O)c(c(/C=N/N5CCN(C6CCCC6)CC5)c(O)c4c3C2=O)NC(=O)/C(C)=C\C=C\[C@H](C)[C@H](O)[C@@H](C)[C@@H](O)[C@@H](C)[C@H](OC(C)=O)[C@@H]1C,12761,-,-,MIC,-,0.04 µg/mL
CCCCCN(C)Cc1cc(C(=O)OCC)ccc1N1C(=O)c2[nH]c3c(NC)cc(F)cc3c(=O)c2C1=O,H37Rv,-,resazurin,MIC,-,4 µg/mL
CCC(CO)NCCNCCc1ccc(OC)c(OC)c1,H37Rv,-,-,MIC,-,300 µM
O=C(O)C(CO)NC(=O)C1CCCN1C(=O)OCc1ccccc1,H37Rv,-,BACTEC,inhibition,12.5 µg/mL,-15%
O=c1[nH]c2c([N+](=O)[O-])cccc2c(O)c1N=Nc1ccc(Cl)c(Cl)c1,H37Rv,-,resazurin,MIC,-,<6.25 µg/mL
CO[C@H]1/C=C/O[C@@]2(C)Oc3c(C)c(O)c4c(O)c(c(/C=N/N5CCN(C)CC5)c(O)c4c3C2=O)NC(=O)/C(C)=C\C=C\[C@H](C)[C@H](O)[C@@H](C)[C@@H](O)[C@@H](C)[C@H](OC(C)=O)[C@@H]1C,-,-,absorbance,MIC,-,0.9 µg/mL
CCn1cc(C(=O)N/N=C/c2ccc(Cl)cc2)c(=O)c2cc(Cl)ccc21,H37Rv (ATCC 27294),-,resazurin,MIC,-,>100 µg/mL
Cc1ccc2nc(N)c(C#N)nc2c1,H37Rv,-,-,inhibition,6.25 µg/mL,17%
COc1nc2ccc(Br)cc2c2c1C(C)(OCC(O)Cn1ccc(-c3ccc(Cl)c(Cl)c3)n1)c1ccccc1-2,H37Rv,-,BACTEC / radiometric,MIC,-,5 µM
O=[N+]([O-])c1ccccc1N1COc2ccccc2C1,-,-,absorbance,MIC,-,1.11 µg/mL
CC(C)[C@@H]1CCN(c2cc(Nc3ccccn3)nc(-c3ccccc3)n2)C1,H37Rv,-,-,MIC99,-,10 µM
CC(=O)N1c2ccccc2S(=O)(=O)c2c1ccc1ccccc21,H37Rv,-,BACTEC,MIC bound,-,>12.5 µg/mL
O=c1[nH]c2c([N+](=O)[O-])cccc2c(O)c1N=Nc1ccc(F)c(Cl)c1,H37Rv,-,resazurin,inhibition,6.25 µg/mL,85%
C[C@@H]1[C@H]2C[C@@H](C[C@H]1NCCNCC(c1ccccc1)c1ccccc1)C2(C)C,H37Rv,-,-,MIC,-,1 µM
N#C/C(=C/c1ccc2ccccc2c1)n1nnc2ccccc21,H37Rv,-,-,inhibition,12.5 µg/mL,0%
C[C@@H]1[C@H]2C[C@@H](C[C@H]1NCCNCCC(c1ccccc1)c1ccccc1)C2(C)C,H37Rv,-,-,MIC,-,3 µM
CCn1cc(C(=O)N/N=C/c2ccncc2)c(=O)c2cc(Cl)ccc21,H37Rv (ATCC 27294),-,resazurin,MIC,-,>100 µg/mL
CC(=O)c1cc([N+](=O)[O-])c2nc(C3CCCCC3)ccc2c1C1CCCCC1,H37Rv,-,-,inhibition,6.25 µg/mL,0%
CN(C)[C@@H]1CCN(c2cc(Nc3ccc(C(F)(F)F)cn3)nc(-c3ccccc3)n2)C1,H37Rv,-,resazurin,MIC90,-,16 µM
Nc1ccc2nc(-c3ccccc3)c(=O)oc2c1,H37Rv,-,BACTEC,MIC bound,-,>12.5 µg/mL
CN(C)C(=O)O/N=C1\c2ccccc2-c2c1c(N1CCN(c3ccccn3)CC1)nc1ccc(Br)cc21,H37Rv,-,BACTEC / radiometric,MIC,-,2.79 µM
Cc1cccc(N=Nc2c(O)c3cccc([N+](=O)[O-])c3[nH]c2=O)c1C,H37Rv,-,resazurin,MIC,-,>6.25 µg/mL
c1ccc(-c2nc(Nc3cc(C4CC4)[nH]n3)cc(OCCN3CCCC3)n2)cc1,H37Rv,-,resazurin,MIC90,-,32 µM
CC1(C)[C@@H]2CC[C@@]1(C)[C@@H](NCCNCC(c1ccccc1)c1ccccc1)C2,H37Rv,-,-,MIC,-,6 µM
Cc1cc2c(cc1C)[n+]([O-])c(NC(=O)OC(C)C)c(C#N)[n+]2[O-],H37Rv,-,-,MIC,-,<12.5 µg/mL
CCCCCCCCCCCCCCCC1=C(O)c2ncccc2C(=O)C1=O,H37Rv,-,resazurin,inhibition,6.25 µg/mL,63%
Cc1cc2nc(N)c(C#N)nc2cc1C,H37Rv,-,-,MIC,-,>12.5 µg/mL
CC[C@@H](CO)NCCN[C@@H](CC)CO,-,-,absorbance,MIC,-,1.8 µg/mL
CC(=O)c1cc([N+](=O)[O-])c2nc(C(C)C)ccc2c1C(C)C,Rifampicin-resistant,-,-,MIC,-,12.5 µg/mL
CO[C@H]1/C=C/O[C@@]2(C)Oc3c(C)c(O)c4c(O)c(c(/C=N/N5CCN(C)CC5)c(O)c4c3C2=O)NC(=O)/C(C)=C\C=C\[C@H](C)[C@H](O)[C@@H](C)[C@@H](O)[C@@H](C)[C@H](OC(C)=O)[C@@H]1C,1 isolates (rpoB Ser531Tyr),-,-,MIC,-,>8 µg/mL
Cc1ccnc(NC(=O)c2cccc3nc4ccccc4nc23)c1,H37Rv 27294,-,-,MIC,-,0.78 µg/mL
O=[N+]([O-])c1cccc2c(C3CCCCC3)cc(C3CCCCC3)nc12,Isoniazid-resistant,-,-,MIC,-,6.25 µg/mL
CC[C@H]1OC(=O)[C@H](C)[C@@H](O[C@H]2C[C@@](C)(OC)[C@@H](O)[C@H](C)O2)[C@H](C)[C@@H](O[C@@H]2O[C@H](C)C[C@H](N(C)C)[C@H]2O)[C@](C)(OC)C[C@@H](C)C(=O)[C@H](C)[C@@H](O)[C@]1(C)O,-,-,-,MIC90,-,>10 µg/mL
Cc1nccc2c(C)c3c(cc12)c1ccccc1n3CC1CO1,H37Rv,-,resazurin,inhibition,6.25 µg/mL,100%
CN1CCN(c2cc3c(cc2F)c(=O)c(C(=O)O)cn3-c2ccc(F)cc2)CC1,-,-,-,MIC90,-,4.7 µg/mL
COc1cc(/C=C(\C#N)n2nnc3ccccc32)cc(OC)c1OC,H37Rv,-,-,EC50,-,>12.5 µg/mL
COc1cccc(NC(=O)c2cccc3nc4ccccc4nc23)c1,H37Rv 27294,-,-,MIC,-,0.39 µg/mL
CC(SC(C)C(=O)N/N=C/c1c[nH]c2ccccc12)C(=O)N/N=C/c1c[nH]c2ccccc12,H37Rv,-,BACTEC,inhibition,12.5 µg/mL,7%
N#C/C(=C\c1ccc[nH]1)n1nnc2ccccc21,H37Rv,-,-,EC50,-,>12.5 µg/mL
CC(C)N=c1cc2n(-c3ccc(Cl)cc3)c3ccccc3nc-2cc1Nc1ccc(Cl)cc1,RMP-R,-,-,MIC,-,≤0.1 µg/mL
O=C(Nc1ccccc1F)c1cccc2nc3ccccc3nc12,H37Rv 27294,-,-,MIC,-,1.56 µg/mL
COc1c(C(C)=O)cc([N+](=O)[O-])c2nc(C(C)C)ccc12,H37Rv,-,-,inhibition,6.25 µg/mL,0%
NC(=O)/C(=C\c1ccc(Cl)cc1)n1nnc2ccccc21,H37Rv,-,-,EC50,-,>12.5 µg/mL
CCn1cc(C(=O)NN=Cc2ccc([N+](=O)[O-])o2)c(=O)c2ccccc21,H37Rv,-,resazurin,MIC,-,6.25 µg/mL
O=c1[nH]c2cc(Cl)ccc2c(O)c1N=Nc1ccc(F)cc1,H37Rv,-,resazurin,EC50,-,6.25 µg/mL
CCOC(=O)C(NC(=O)c1cccc(Cl)c1)(N1CCN(c2cc3c(cc2F)c(=O)c(C(=O)O)cn3C2CC2)CC1)C(F)(F)F,H37Rv,-,resazurin,MIC,-,0.78 µg/mL
CC(C)c1ccc2cccc([N+](=O)[O-])c2n1,H37Rv,-,-,MIC,-,>6.25 µg/mL
CN1P(=N)(N)N=P(c2ccccc2)(c2ccccc2)N=P1(c1ccccc1)c1ccccc1.I,H37Rv,-,BACTEC,MIC bound,-,≤128 µg/mL
O=c1[nH]c2cc(Cl)ccc2c(O)c1N=Nc1cccc(Cl)c1,H37Rv,-,resazurin,MIC,-,>6.25 µg/mL
CC(C)N=c1cc2n(-c3ccc(Cl)cc3)c3ccccc3nc-2cc1Nc1ccc(Cl)cc1,2225,multidrug-resistant,-,MIC,-,0.5 µg/mL
O=C1CC2C(O)OC(O)C(C1)N2C(=O)OCC(Cl)(Cl)Cl,H37Rv,-,BACTEC,MIC,-,≥12.5 µg/mL
CN(C)CCCOc1cc(Nc2cc(C3CC3)[nH]n2)nc(-c2ccccc2)n1,H37Rv,-,resazurin,MIC90,-,32 µM
C/C1=C/[C@@H]2OC(=O)[C@]3(C)[C@@H]2[C@@H](C[C@]2(C)OC1=CC2=O)O[C@@]3(O)C(C)C,H37Rv,-,BACTEC,MIC bound,-,>12.5 µg/mL
O=C(O)/C(=C\c1ccc(Br)cc1)n1nnc2ccccc21,H37Rv,-,-,EC50,-,>12.5 µg/mL
O=C(OCCN1CCN(CCCN2c3ccccc3Sc3ccc(C(F)(F)F)cc32)CC1)C12CC3CC(CC(C3)C1)C2,H37Rv,-,BACTEC,MIC bound,-,>12.5 µg/mL
c1ccc(C(CNCCNCC23CC4CC(CC(C4)C2)C3)c2ccccc2)cc1,H37Rv,-,-,MIC,-,1 µM
CC12C(=C(C#N)C(=N)N1c1ccc(Cl)c(Cl)c1)C=C(O)CC2SCCS(=O)(=O)[O-].[Na+],H37Rv,-,BACTEC,MIC bound,-,>12.5 µg/mL
O=C(Nc1cccc(C(F)(F)F)c1)c1cccc2nc3ccccc3nc12,H37Rv 27294,-,-,MIC,-,0.78 µg/mL
CC(=O)Oc1ccn2nc(C)c(Cc3c(C)nn4ccc(OC(C)=O)cc34)c2c1,H37Rv,-,resazurin,MIC bound,-,>6.25 µg/mL
CCn1cc(C(=O)N/N=C/c2ccc(Br)s2)c(=O)c2ccccc21,H37Rv (ATCC 27294),-,resazurin,MIC,-,>100 µg/mL

For reference, 8 entries again:

compound,strain or isolate,setting,read by,measure,tested at,value
O=C(O)c1c(Cl)c(Cl)c(Cl)c(Cl)c1-c1c2ccc(=O)cc-2oc2cc(O)ccc12,H37Rv,-,BACTEC,MIC bound,-,>12.5 µg/mL
Cc1cccc(N=Nc2c(O)c3ccc(Cl)c(Cl)c3[nH]c2=O)c1,H37Rv,-,resazurin,MIC,-,<6.25 µg/mL
CC(C)=O.CC(C)C1(NC(=O)C2C=C3c4cccc5[nH]cc(c45)CC3N(C)C2)OC2(O)C3CCCN3C(=O)C(Cc3ccccc3)N2C1=O,H37Rv,-,BACTEC,inhibition,12.8 µg/mL,41%
C/C(=N\NC(=O)c1cccnc1)c1cccc(/C(C)=N/NC(=O)c2cccnc2)n1,H37Rv,-,BACTEC,MIC,-,≥12.5 µg/mL
O=c1[nH]c2c([N+](=O)[O-])cccc2c(O)c1N=Nc1ccc(Cl)c(Cl)c1,H37Rv,-,resazurin,MIC,-,<6.25 µg/mL
CC(=O)N1c2ccccc2S(=O)(=O)c2c1ccc1ccccc21,H37Rv,-,BACTEC,MIC bound,-,>12.5 µg/mL
O=[N+]([O-])c1cccc2c(C3CCCCC3)cc(C3CCCCC3)nc12,Isoniazid-resistant,-,-,MIC,-,6.25 µg/mL
CCCCCN(C)Cc1cc(C(=O)OCC)ccc1N1C(=O)c2[nH]c3c(NC)cc(F)cc3c(=O)c2C1=O,H37Rv,-,resazurin,MIC,-,4 µg/mL

An empty or dashed field is not shown. MIC50, MIC90 and the like: level of inhibition, or share of isolates inhibited. MIC bound: limit read from a one-dose screen. ECn: concentration that inhibits the pathogen or its effect by n%. Rows are shuffled and stem from different studies.